Measured values: patent US6426231B1 (priority 1998, dated 2002)
Several values for one entry are separate records, joined by “and”; a condition that tells them apart may be missing. Identical values can stand only once. Like-named read-outs stand apart in the source and are kept apart here.

Key:
αHL-M113N = αHL-M113N (Staphylococcus aureus, UniProt P09616, G156S/I168L/K34A/M139N/N165Q/V150L); settings: for g (conductance): −40 mV, 1M NaCl, 10 mM Na phosphate
αHL-CH1 = αHL-CH1 (Staphylococcus aureus, UniProt P09616, DEL150-163/F146V/G145E/INS166HASFFDIGGSVSAG/N147H/N165E); settings: −40 mV, 1M KCl, 10 mM K phosphate, pH 7.4
αHL-E111N/K147N = αHL-E111N/K147N (Staphylococcus aureus, UniProt P09616, E137N/G156S/I168L/K173N/K34A/N165Q/V150L); settings: −40 mV, 1M NaCl, 10 mM Na phosphate, pH 7.5
[1] = pH 7.5, KCl in mM [cis/trans] [200/1000]
[2] = range over both KCl gradient directions, pH 7.5

Substance | PK+/PCl− (αHL-M113N; [1]) | PK+/PCl− (αHL-M113N; pH 7.5, KCl in mM [cis/trans] [1000/200]) | PK+/PCl− (αHL-M113N; [2]) | g (conductance) (αHL-CH1) | binding of β-cyclodextrin, times more tightly than WT homoheptamers (αHL-M113N; homoheptameric αHL-M113N vs WT) | g (conductance) (αHL-M113N; pH 7.5) [pS] | g (conductance) (αHL-E111N/K147N) [pS]
heptakis-6-sulfato-β-cyclodextrin | 4.1 ± 0.2 ^c | 6.1 ± 0.14 ^d | 4.1-6.1 | – | – | – | –
β-cyclodextrin | 0.079 ± 0.005 ^c | – | 0.046-0.079 | 109 pS and 109 ± 9 pS | 10^4 times | 261 ± 4 | 207 ± 7
γ-cyclodextrin | – | – | – | – | – | 287 ± 5 | 275 ± 4
